{"source": "PubChem BioAssay AID1224833 – University of Georgia – 2016", "purpose": "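Host factors restraining rotavirus as candidate antiviral genes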 (primary screen)", "cell system": "monkey MA104 kidney cells", "reagent": "siRNA pool against human genes, 50 nM", "duration": "48 h knock-down before infection; read 24 h after infection", "challenge": "infection with rotavirus strain RV3 two days after transfection; infectious dose for this stage not given", "detection": "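Rotavirus antigen per well by fluorescent immunoassay, normalised to non-targeting control wells on each plate and given as a standard z-score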", "direction": "z-score vs non-targeting control: higher = more rotavirus replication than with non-targeting control", "active means": "In these data the active calls have z-score vs non-targeting control at about -1 or lower, or at about 1 or higher", "calls": "active = z-score beyond 1 either way; inactive = z-score within 1 of zero", "note": "Here is an unselected part of about 12,000 deposited reagents. About 5,600 of them (46%) count as active. 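Active calls cover z-scores past 1 in both directions, so they include lowered as well as raised rotavirus replication.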"}
{"gene knocked down": "RBM4", "z-score vs non-targeting control": -0.0209, "outcome": "inactive"}
{"gene knocked down": "PAQR9", "z-score vs non-targeting control": 1.08, "outcome": "active"}
{"gene knocked down": "GNB1L", "z-score vs non-targeting control": -0.21, "outcome": "inactive"}
{"gene knocked down": "NOP53", "z-score vs non-targeting control": -1.61, "outcome": "active"}
{"gene knocked down": "EPO", "z-score vs non-targeting control": -0.43, "outcome": "inactive"}
{"gene knocked down": "CIB3", "z-score vs non-targeting control": -0.46, "outcome": "inactive"}
{"gene knocked down": "POLR1B", "z-score vs non-targeting control": -0.502, "outcome": "inactive"}
{"gene knocked down": "NIPSNAP1", "z-score vs non-targeting control": 1.46, "outcome": "active"}
{"gene knocked down": "SLC36A2", "z-score vs non-targeting control": -1.51, "outcome": "active"}
{"gene knocked down": "EIPR1", "z-score vs non-targeting control": -1.06, "outcome": "active"}
{"gene knocked down": "METTL22", "z-score vs non-targeting control": 0.473, "outcome": "inactive"}

Laid out differently: 2 of the entries above.
{"gene knocked down":"NOP53","z-score vs non-targeting control":-1.61,"outcome":"active"}
{"gene knocked down":"EPO","z-score vs non-targeting control":-0.43,"outcome":"inactive"}

Next records follow:
{"gene knocked down": "GOLT1A", "z-score vs non-targeting control": -0.708, "outcome": "inactive"}
{"gene knocked down": "EIF3G", "z-score vs non-targeting control": -0.708, "outcome": "inactive"}
{"gene knocked down": "TCERG1L", "z-score vs non-targeting control": 0.704, "outcome": "inactive"}
{"gene knocked down": "TRMT10A", "z-score vs non-targeting control": -0.435, "outcome": "inactive"}
{"gene knocked down": "SLC2A14", "z-score vs non-targeting control": -1.24, "outcome": "active"}
{"gene knocked down": "S100A6", "z-score vs non-targeting control": -0.681, "outcome": "inactive"}
{"gene knocked down": "RABL2B", "z-score vs non-targeting control": 0.88, "outcome": "inactive"}
{"gene knocked down": "ID4", "z-score vs non-targeting control": -1.92, "outcome": "active"}
{"gene knocked down": "SLC30A7", "z-score vs non-targeting control": -1.14, "outcome": "active"}
{"gene knocked down": "ARHGEF3", "z-score vs non-targeting control": -0.808, "outcome": "inactive"}
{"gene knocked down": "MAGED2", "z-score vs non-targeting control": 0.147, "outcome": "inactive"}
{"gene knocked down": "CWC22", "z-score vs non-targeting control": -1.7, "outcome": "active"}
{"gene knocked down": "TUBA3D", "z-score vs non-targeting control": -0.272, "outcome": "inactive"}
{"gene knocked down": "ZNF75A", "z-score vs non-targeting control": -0.184, "outcome": "inactive"}
{"gene knocked down": "SLC26A10P", "z-score vs non-targeting control": -1.54, "outcome": "active"}
{"gene knocked down": "TXK", "z-score vs non-targeting control": -1.2, "outcome": "active"}
{"gene knocked down": "AGTR2", "z-score vs non-targeting control": -1.91, "outcome": "active"}
{"gene knocked down": "SF3A3", "z-score vs non-targeting control": 0.393, "outcome": "inactive"}
{"gene knocked down": "IER5", "z-score vs non-targeting control": 0.0594, "outcome": "inactive"}
{"gene knocked down": "SLC22A16", "z-score vs non-targeting control": 0.659, "outcome": "inactive"}
{"gene knocked down": "DQX1", "z-score vs non-targeting control": -0.263, "outcome": "inactive"}
